Reference: patent US20190359693A1, “Binding molecules directed against influenza hemagglutinin and uses thereof” (Janssen / Centocor, published 2019)

Experiments:
[1] = target: HA of H1N1 A/New Caledonia/20/1999 (influenza A virus); test: BLI steady state
[2] = target: HA of H1N1 A/New Caledonia/20/1999 (influenza A virus); test: cell-based or functional assay
[3] = target: HA of H1N1 A/Puerto Rico/8/34-MA (influenza A virus); test: cell-based or functional assay
[4] = target: HA of H5N1 A/PR8 H5N1 HK97 (influenza A virus); test: cell-based or functional assay
[5] = target: HA of H5N1 A/Vietnam/1194/04 (influenza A virus); test: cell-based or functional assay
[6] = target: HA of H3N2 A/Brisbane/10/2007 (influenza A virus); test: cell-based or functional assay
[7] = target: T1, HA of H7N3 A/NIBRG/60 (A/mallard/NL/12/00) (influenza A virus); test: cell-based or functional assay
[8] = target: HA of B/Brisbane/60/2008 (Victoria) (influenza B virus); test: cell-based or functional assay
[9] = target: HA of B/Florida/04/2006 (Yamagata) (influenza B virus); test: cell-based or functional assay
[10] = target: HA of H1N1 A/California/07/2009 (influenza A virus); test: cell-based or functional assay
[11] = target: HA of H3N2 A/Wisconsin/67/2005 (influenza A virus); test: cell-based or functional assay
[12] = target: HA of H3N2 A/Brisbane/10/2007 (influenza A virus); test: AlphaLISA competition vs CR8020
[13] = target: HA of H3N2 A/Wisconsin/67/2005 (influenza A virus); test: AlphaLISA competition vs CR8020
[14] = target: HA of H3N2 A/Brisbane/10/2007 (influenza A virus); test: AlphaLISA competition vs CR8057
[15] = target: HA of H3N2 A/Wisconsin/67/2005 (influenza A virus); test: AlphaLISA competition vs CR8057
[16] = target: HA of H1N1 A/New Caledonia/20/1999 (influenza A virus); test: AlphaLISA competition vs CR9114
[17] = target: HA of H3N2 A/Brisbane/10/2007 (influenza A virus); test: AlphaLISA competition vs CR9114
[18] = target: HA of H1N1 A/California/07/2009 (influenza A virus); test: AlphaLISA competition vs CR9114
[19] = target: HA of H3N2 A/Wisconsin/67/2005 (influenza A virus); test: AlphaLISA competition vs CR9114
[20] = target: HA of H5N1 A/Vietnam/1203/2004 (influenza A virus); test: AlphaLISA competition vs CR9114
[21] = target: HA of H3N2 A/Brisbane/10/2007 (influenza A virus); test: BLI steady state
[22] = target: T1, HA of H7N3 A/NIBRG/60 …; test: BLI steady state
[23] = target: HA of H1N1 A/Brisbane/59/07 (influenza A virus); test: BLI steady state
[24] = target: HA of H3N2 A/Wisconsin/67/2005 (influenza A virus); test: BLI steady state
[25] = target: HA of H7N9 A/Hangzhou/1/2013 (influenza A virus); test: BLI steady state
[26] = target: HA of H1N1 A/New Caledonia/20/1999 (influenza A virus); test: cell-based or functional assay; remark: listed apart in the source
[27] = target: HA of H1N1 A/Puerto Rico/8/34-MA (influenza A virus); test: cell-based or functional assay; remark: listed apart in the source
[28] = target: HA of H5N1 A/PR8 H5N1 HK97 (influenza A virus); test: cell-based or functional assay; remark: listed apart in the source
[29] = target: HA of H5N1 A/Vietnam/1194/04 (influenza A virus); test: cell-based or functional assay; remark: listed apart in the source
[30] = target: HA of H3N2 A/Brisbane/10/2007 (influenza A virus); test: cell-based or functional assay; remark: listed apart in the source
[31] = target: T1, HA of H7N3 A/NIBRG/60 …; test: cell-based or functional assay; remark: listed apart in the source
[32] = target: HA of B/Brisbane/60/2008 (Victoria) (influenza B virus); test: cell-based or functional assay; remark: listed apart in the source
[33] = target: HA of H1N1 A/Brisbane/59/07 (influenza A virus); test: cell-based or functional assay
[34] = target: HA of H3N2 A/Brisbane/10/2007 (influenza A virus); test: AlphaLISA competition vs SD1036
[35] = target: HA of H3N2 A/Brisbane/10/2007 (influenza A virus); test: AlphaLISA competition vs SD1038
[36] = target: HA of B/Brisbane/60/2008 (Victoria) (influenza B virus); test: AlphaLISA competition vs CR9114
[37] = target: HA of B/Brisbane/60/2008 (Victoria) (influenza B virus); test: BLI steady state
[38] = target: HA of B/Brisbane/60/2008 (Victoria) (influenza B virus); test: cell-based or functional assay; remark: listed apart in the source
[39] = target: HA of B/Florida/04/2006 (Yamagata) (influenza B virus); test: cell-based or functional assay; remark: listed apart in the source
[40] = target: HA of B/Brisbane/60/2008 (Victoria) (influenza B virus); test: cell-based or functional assay; remark: listed apart in the source
[41] = target: HA of B/Florida/04/2006 (Yamagata) (influenza B virus); test: cell-based or functional assay; remark: listed apart in the source
[42] = target: HA of B/Florida/04/2006 (Yamagata) (influenza B virus); test: AlphaLISA competition vs CR8033
[43] = target: HA of B/Brisbane/60/2008 (Victoria) (influenza B virus); test: AlphaLISA competition vs CR8071
[44] = target: HA of B/Florida/04/2006 (Yamagata) (influenza B virus); test: AlphaLISA competition vs CR8071
[45] = target: HA of B/Florida/04/2006 (Yamagata) (influenza B virus); test: AlphaLISA competition vs CR9114
[46] = target: HA of B/Brisbane/60/2008 (Victoria) (influenza B virus); test: AlphaLISA competition vs SD1083
[47] = target: HA of B/Florida/04/2006 (Yamagata) (influenza B virus); test: AlphaLISA competition vs SD1083
[48] = target: HA of B/Brisbane/60/2008 (Victoria) (influenza B virus); test: AlphaLISA competition vs SD1084
[49] = target: HA of B/Florida/04/2006 (Yamagata) (influenza B virus); test: AlphaLISA competition vs SD1084
[50] = target: HA of B/Brisbane/60/2008 (Victoria) (influenza B virus); test: AlphaLISA competition vs SD1085
[51] = target: HA of B/Florida/04/2006 (Yamagata) (influenza B virus); test: AlphaLISA competition vs SD1085
[52] = target: HA of B/Brisbane/60/2008 (Victoria) (influenza B virus); test: AlphaLISA competition vs SD1086
[53] = target: HA of B/Florida/04/2006 (Yamagata) (influenza B virus); test: AlphaLISA competition vs SD1086
[54] = target: HA of B/Brisbane/60/2008 (Victoria) (influenza B virus); test: AlphaLISA competition vs SD1087
[55] = target: HA of B/Florida/04/2006 (Yamagata) (influenza B virus); test: AlphaLISA competition vs SD1087

B1: SD1016 (VHH)
VHH: EVQLVESGGGLVQAGGSLRLSCVASGMFFGIAAMGWYRQAPGKQRELVANITSDFSTNYADSVKDRFTISRDNAENTVYLQMNSLKPEDTAVYYCAADSLGTGWRHYYYWGQGTQVTVSS
notes: llama sdAb
Work on B1 yielded a Kd [1] of 6 nM, a VNA titer [2] of 7.1 nM and a VNA titer [3] of 15.7 nM. It also gave a VNA titer [4] of 27.8 nM, a VNA titer [5] of 29.3 nM and a VNA titer [6] greater than 1000 nM. For the same binder, the VNA titer [7] was greater than 1000 nM, the VNA titer [8] was greater than 1000 nM and the VNA titer [9] was greater than 1000 nM. For the same binder, the VNA titer [10] was 9.1 nM, the VNA titer [11] was greater than 1000 nM and the pIC50 [12] was less than 7. The pIC50 [13] was less than 7, the pIC50 [14] was less than 7 and the pIC50 [15] was less than 7. The pIC50 [16] was 9.9, the pIC50 [17] was less than 7 and the pIC50 [18] was 10.3. It also gave a pIC50 [19] of less than 7 and a pIC50 [20] of 9.6.

B2: SD1038 (VHH)
VHH: EVQLVESGGGLVQPGGSLRLSCAVSISIFDIYAMDWYRQAPGKQRDLVATSFRDGSTNYADSVKGRFTISRDNAKNTLYLQMNSLKPEDTAVYLCHVSLYRDPLGVAGGMGVYWGKGALVTVSS
notes: llama sdAb
In the case of B2, the Kd [1] is reported as 4 nM, the Kd [21] is reported as 14 nM and the Kd [22] is reported as 88 nM. For the same binder, the Kd [23] was 3 nM, the Kd [24] was 42 nM and the Kd [25] was 57 nM. The VNA titer [26] was 10.1 nM, the VNA titer [27] was 8.8 nM and the VNA titer [28] was 9.7 nM. It also gave a VNA titer [29] of 30.1 nM, a VNA titer [30] of 19 nM and a VNA titer [31] greater than 1000 nM. For the same binder, the VNA titer [32] was greater than 1000 nM, the VNA titer [33] was 3.1 nM and the pIC50 [12] was 7.8. It also gave a pIC50 [13] of 7.2, a pIC50 [14] of less than 7 and a pIC50 [15] of less than 7. For the same binder, the pIC50 [16] was 10.1, the pIC50 [17] was 8.6 and the pIC50 [19] was 8. The pIC50 [20] was 9.3, the pIC50 [34] was 7.9 and the pIC50 [35] was 8.3. It also gave a pIC50 [36] of less than 7.

B3: SD1083 (VHH)
VHH: EVQLVESGGGLVQPGGSLRLSCAATGFTLENKAIGWFRQTPGSEREGVLCISKSGSWTYYTDSMRGRFTISRDNAENTVYLQMDSLKPEDTAVYYCATTTAGGGLCWDGTTFSRLASSWGQGTQVTVSS
notes: llama sdAb
B3 was tested, and the Kd [37] was 3 nM, the VNA titer [38] was 178 nM and the VNA titer [39] was 220 nM. It also gave a hemagglutination inhibition titer [40] greater than 50 µg/mL, a hemagglutination inhibition titer [41] greater than 50 µg/mL and a pIC50 [35] of less than 7. For the same binder, the pIC50 [42] was less than 7, the pIC50 [43] was less than 7 and the pIC50 [44] was less than 7. It also gave a pIC50 [36] of 9.4, a pIC50 [45] of 9.3 and a pIC50 [46] of 8.9. The pIC50 [47] was 9, the pIC50 [48] was less than 7 and the pIC50 [49] was less than 7. For the same binder, the pIC50 [50] was 8.7, the pIC50 [51] was 8.9 and the pIC50 [52] was 9.1. It also gave a pIC50 [53] of 9.2, a pIC50 [54] of 9 and a pIC50 [55] of 9.1.

Like-named read-outs stand apart in the source and are kept apart here.
